From ChEMBL document CHEMBL3988442, “University of Dundee, Small-Polar-MMV Screening Library” (2021).

Mtb glucose medium: 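Whole-cell growth test on Mycobacterium tuberculosis, read after 3 days in glucose-containing 7H9 medium; the read-out is not stated. Compounds at 500 µM. Higher reads as more growth inhibition (inferred: compounds with an IC50 in retests scored well above the rest). Of about 18,000 compounds tested this way, about 1,400 (7.9%) reached 50% or more in at least one test.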
Mtb cholesterol medium: 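Whole-cell growth test on Mycobacterium tuberculosis, read after 4 days in a medium based on cholesterol and the lipid DPPC; the read-out is not stated. Compounds at 500 µM. Direction is inferred from retests: higher values go with more growth inhibition. Of about 18,000 compounds tested this way, about 900 (5%) reached 50% or more in at least one test.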

Results are given as percent effect.
The record does not define 0% and 100%; most values in the screen are far below 50% and negative numbers occur (in some assays of this library far below -100).
Many other results are left out here, so strong results are more common than in the screen.
A dash means the value is not listed here; it may have been measured.

* COc1cc(C(=O)NCC(=O)c2ccco2)ccc1F : Mtb glucose medium: 35.21%; Mtb cholesterol medium: 43.49%
* CC(C)C(NCCCF)C(=O)N1CCOCC1 (stereo unspecified) : Mtb glucose medium: -9.721%
* Cc1cc(NC(=O)C[S+]([O-])c2cccs2)no1 (stereo unspecified) : Mtb cholesterol medium: 10.64%
* CCn1c(SCC(N)=O)nnc1-c1cc(Br)cs1 : Mtb glucose medium: 86.47%; Mtb cholesterol medium: 98.82%
* CN(Cc1ccc(S(=O)(=O)N(C)C)o1)CC1CC1 : Mtb glucose medium: 10.03%; Mtb cholesterol medium: 19.09%
* N[C@H]1C[C@@H](c2cc(NCC3CCOCC3)ncn2)C1 : Mtb glucose medium: -4.969%
* O=S(=O)(c1ccco1)N1CCSC2(CCOCC2)C1 : Mtb glucose medium: 49.28%; Mtb cholesterol medium: 31.86%
* CC(Cc1ccco1)NC(=O)Cn1ccc(=O)[nH]c1=O (stereo unspecified) : Mtb cholesterol medium: 9.397%
* N#CCCNC(=O)CN1CCCC1 : Mtb cholesterol medium: -19.07%
* COc1ccc2c(c1)OCC(CNC(=O)CN(C)C)C2 (stereo unspecified) : Mtb glucose medium: 61.32%; Mtb cholesterol medium: 55.29%
* Cc1cccc2[nH]cc(CCN)c12 : Mtb glucose medium: 84.83%; Mtb cholesterol medium: 59.68%
* CCc1cccc2c(C(C)=O)cn(CC(N)=O)c12 : Mtb glucose medium: 19.78%
* NCCc1nc2cc(F)ccc2s1 : Mtb glucose medium: 14.3%
* COc1ncccc1C(=O)NCCN1CCCC(C)C1 (stereo unspecified) : Mtb glucose medium: 12.43%
* Cc1nc2ccc(NC(=O)C3=NNC(=O)CC3)cc2s1 : Mtb cholesterol medium: 5.477%
* O=C(NC1CC1)N1CCN(c2ncccc2Cl)CC1 : Mtb glucose medium: 52.49%
* Cc1ccc(NC(=O)C(C)N2CCC(O)CC2)cc1 (stereo unspecified) : Mtb glucose medium: 16.61%; Mtb cholesterol medium: 15.79%
* COCCc1noc(-c2cnsn2)n1 : Mtb glucose medium: -7.139%; Mtb cholesterol medium: -9.854%
* COc1cc(-c2nnn(C)n2)ccc1O : Mtb cholesterol medium: 14.72%
* c1ccc(CCNC2CC2)nc1 : Mtb glucose medium: 13.46%
* Cc1cc(C(=O)NCc2ncnn2C)c(C)cc1Br : Mtb glucose medium: 1.559%; Mtb cholesterol medium: -2.349%
* OCCCN1CCNCC1 : Mtb glucose medium: -8%
* Cc1c(C(=O)NC2=NCCS2)oc2ccccc12 : Mtb glucose medium: 86.52%; Mtb cholesterol medium: 88.43%
* N[C@H]1CCO[C@@H]1c1cccnc1 : Mtb glucose medium: -1.356%
* O=C(CS(=O)(=O)Cc1cccc(Cl)c1)NCC1CC1 : Mtb glucose medium: 67.32%; Mtb cholesterol medium: 53.52%
* CC(C)(C)OC(=O)NCC1CC(C(N)=O)=NO1 (stereo unspecified) : Mtb cholesterol medium: -6.247%
* CC(C)(CN)C1(O)CCCOC1 (stereo unspecified) : Mtb cholesterol medium: -1.055%
* CC(C)(C)OC(=O)CCOCCO : Mtb glucose medium: 11.07%
* CC(C)OCCOCC(O)CN(C)Cc1cccnc1 (stereo unspecified) : Mtb cholesterol medium: -6.918%

Some entries from above, unchanged:

SMILES,Mtb glucose medium,Mtb cholesterol medium
c1ccc(CCNC2CC2)nc1,13.46%,-
N[C@H]1CCO[C@@H]1c1cccnc1,-1.356%,-
CC(C)OCCOCC(O)CN(C)Cc1cccnc1 (stereo unspecified),-,-6.918%